These results are taken from patent US20100256070A1 (GENERAL HOSPITAL, published 2010).

The target of the experiment is urokinase-like plasminogen activator receptor (uPAR/CD87) (UniProt Q03405 23-305). As to the kind of experiment: cell-based or functional assay.

B1:  (other)
chain: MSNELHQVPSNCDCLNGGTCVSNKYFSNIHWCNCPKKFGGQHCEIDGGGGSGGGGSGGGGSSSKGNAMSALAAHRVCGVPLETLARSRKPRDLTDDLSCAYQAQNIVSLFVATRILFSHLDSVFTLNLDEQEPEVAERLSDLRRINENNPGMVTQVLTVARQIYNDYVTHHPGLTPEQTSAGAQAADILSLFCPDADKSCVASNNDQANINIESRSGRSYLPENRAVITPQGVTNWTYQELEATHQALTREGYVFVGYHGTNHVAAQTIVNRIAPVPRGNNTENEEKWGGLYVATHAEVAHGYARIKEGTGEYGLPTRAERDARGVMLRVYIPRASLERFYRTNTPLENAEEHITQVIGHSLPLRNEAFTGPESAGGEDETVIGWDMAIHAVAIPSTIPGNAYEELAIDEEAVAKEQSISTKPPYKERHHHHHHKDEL
In the case of B1, the “IC50 (killing of Jurkat cells)” value was 0.4 nM.
